Experimental data as given in patent US12715896B2 (priority 2020, dated 2026).
Read-outs that look alike come from different tables or passages of the source.

Target: SARS-CoV-2 M^pro (Severe acute respiratory syndrome coronavirus 2, UniProt P0DTD1)
Assay: FRET-based enzymatic assay for SARS-CoV-2 main protease
Type: biochemical

SMILES	IC50 (read-out: SARS-CoV-2 M^pro IC50)	IC50
CCCC[C@H](NC(=O)[C@@H]1[C@@H]2[C@H](CN1C(=O)[C@@H](NC(=O)NC1(CS(=O)(=O)C(C)(C)C)CCCCC1)C(C)(C)C)C2(C)C)C(=O)C(=O)NC1CC1 [Narlaprevir (29), Narlaprevir]	4.73 µM	
CCC[C@@H](C=O)NC(=O)[C@H](CC(C)C)NC(=O)[C@H](CC(C)C)NC(=O)OCc1ccccc1 [Jun9-48-2]		1.49 µM
